Among the data in PubChem BioAssay AID651602 (The Scripps Research Institute Molecular Screening Center, 2012) are inhibition values, retold here.

The list shows a part of the results, in another mix than the full data. Activity calls are given as the source filed them. Rule as the data show it: active = inhibition above about 11%; inactive = the rest.

This assay is described as follows: reduced absorbance of E. coli cultures with phage – HTS, RecBCD inhibitor project, primary screen (AID 651602). To be noted: growth absorbance, at 11.9 µM, stronger effect = higher value.
Broadly, the inhibition is the drop in the measured response relative to a control, in per cent. On to `CCOC(=O)N1CCC(Nc2ccc(C)cc2)CC1`, for which the inhibition was inactive: -0.23%.
The result for `COc1cccc(C(c2nnnn2C(C)(C)C)N2CCC(n3c(=O)[nH]c4ccccc43)CC2)c1OC` (stereo unspecified) reads inactive: 1.11%; that for `N/C(=N\O)c1c(N)no[n+]1[O-]`, inactive: 2.06%; that for `O=C(OC1CN2CCC1CC2)C1c2ccccc2C=Cc2ccccc21` (stereo unspecified), inactive: 4%.
Regarding `O=c1[nH]c2ccccc2n1C1CCN(C(c2cccs2)c2nnnn2C2CCCC2)CC1` (stereo unspecified), the inhibition is inactive: 0.64%.
In the case of `CCCCn1nnnc1C(c1cccc(OC)c1OC)N1CCC(n2c(=O)[nH]c3ccccc32)CC1` (stereo unspecified), the inhibition was inactive: 2.74%.
In the case of `CCCCn1nnnc1C(c1ccccc1)N1CCC(n2c(=O)[nH]c3ccccc32)CC1` (stereo unspecified) it was inactive: -0.23%.
`COc1cc(C(=O)NCC2(N3CCOCC3)CCCCC2)cc(OC)c1C`: the inhibition is inactive: 8.33%.
The result for `O=C(NCC1(N2CCOCC2)CCCCC1)c1cc(Br)ccc1Cl` reads inactive: 2.11%.
In the case of `O=c1[nH]c2ccccc2n1C1CCN(C(c2cccs2)c2nnnn2C2CCCCC2)CC1` (stereo unspecified) it was inactive: 0.08%; in that of `COc1ccc(C(=O)NCC2(N3CCOCC3)CCCCC2)cc1OC`, inactive: 0.84%.
The result for `O=c1[nH]c2ccccc2n1C1CCN(C(c2ccnc3ccccc23)c2nnnn2C2CCCC2)CC1` (stereo unspecified) reads inactive: 2.07%; that for `CN(C)C1(CNC(=O)c2cccc(C#N)c2)CCCCC1`, inactive: 3.34%; that for `C/C(N)=N\P(=O)(Oc1ccccc1)Oc1ccccc1`, inactive: 2.83%.
Take `c1ccc(CN2CCC(Nc3ccccc3)CC2)cc1`: the inhibition is inactive: 4.14%.
In the case of `O=c1[nH]c2ccccc2n1C1CCN(C(c2ccccc2)c2nnnn2C2CCCC2)CC1` (stereo unspecified) it was inactive: 2.44%; in that of `CCCN1CCC(Nc2cc(OC)cc(OC)c2)CC1`, inactive: -2.87%.
In the case of `Cc1cc(N(CCCl)CCCl)ccc1C=O` it was inactive: -0.08%.
In the case of `CC(C)(C)n1nnnc1C(c1cccc2ccccc12)N1CCC(n2c(=O)[nH]c3ccccc32)CC1` (stereo unspecified), the inhibition was inactive: 3.02%.
With `N#Cc1ccc(C(=O)NCC2(N3CCCCC3)CCCCC2)cc1`, the inhibition was inactive: -1.62%.
On to `CC(C)(C)OC(=O)N1CCC(N(C(=O)c2ccccc2)c2ccc(Cl)cc2)CC1`, for which the inhibition was inactive: -3.02%.
The result for `O=C(NCC1(N2CCCCC2)CCCCC1)c1cccc(C(F)(F)F)c1` reads inactive: 3.14%; that for `O=C(NCC1(N2CCOCC2)CCCCC1)c1cc(=O)[nH]c2ccccc12`, inactive: 2.14%.
As for `COc1cc(C(=O)NCC2(N3CCCCC3)CCCCC2)ccc1OC(F)F`, the inhibition was inactive: -0.38%.
The result for `COc1ccc(NC2CCN(C(=O)OC(C)(C)C)CC2)cc1` reads inactive: 2.89%; that for `CC(C)c1ccc(C(=O)NCC2(N3CCOCC3)CCCCC2)cc1`, inactive: -1.31%.
In the case of `CN1CCN(CCOC(=O)C(O)(c2ccccc2)c2ccccc2)CC1` it was inactive: 3.91%; in that of `CCCCn1nnnc1C(c1cccc2ccccc12)N1CCC(n2c(=O)[nH]c3ccccc32)CC1` (stereo unspecified), inactive: -0.62%.
Consider `CC(C)(C)n1nnnc1C(c1ccccc1OC(F)(F)F)N1CCC(n2c(=O)[nH]c3ccccc32)CC1` (stereo unspecified), for which the inhibition was inactive: 1.87%.
The result for `O=C(NCC1(N2CCCCC2)CCCCC1)c1ccc(OC(F)F)cc1` reads inactive: 0.15%; that for `CCN1CCC(Nc2ccc(Cl)cc2)CC1`, inactive: -2.25%; that for `O=c1[nH]c2ccccc2n1C1CCN(C(c2ccccc2OC(F)(F)F)c2nnnn2C2CCCC2)CC1` (stereo unspecified), inactive: 0.24%.
With `N#CC1(Nc2ccccc2)CCN(CCc2ccccc2)CC1`, the inhibition was inactive: 1.25%.
For `O=C(NCC1(N2CCCCC2)CCCCC1)c1cccc([N+](=O)[O-])c1`, the inhibition was inactive: 3.04%.
The result for `CSc1ccc(C(=O)NCC2(N3CCOCC3)CCCCC2)cc1` reads inactive: 2.56%; that for `CN1CCC(Nc2cccc(F)c2)CC1`, inactive: 3.04%; that for `O=C(NCC1(N2CCCCC2)CCCCC1)c1cncc(Br)c1`, inactive: 0.54%.
The result for `COc1ccc(C(c2nnnn2C2CCCC2)N2CCC(n3c(=O)[nH]c4ccccc43)CC2)cc1` (stereo unspecified) reads inactive: -0.86%; that for `Cc1ccc(C(=O)NCC2(N(C)C)CCCCC2)o1`, inactive: 0.47%.
In the case of `CCCOc1ccc(C(=O)NCC2(N(C)C)CCCCC2)cc1OC`, the inhibition was inactive: -0.72%.
In the case of `CC(C)c1ccc(NC2CCN(C(=O)OC(C)(C)C)CC2)cc1`, the inhibition was inactive: 2.3%.
Consider `COc1ccc(CN(CCCl)CCCl)cc1Cl`, for which the inhibition is inactive: 2.59%.
`CN(C)c1cccc(C(=O)NCC2(N3CCCCC3)CCCCC2)c1`: the inhibition was inactive: 0.85%.
In the case of `COc1cc(OC)c(C(=O)NCC2(N(C)C)CCCCC2)cc1OC` it was inactive: -1.27%; in that of `CCC(c1nnnn1C(C)(C)C)N1CCC(n2c(=O)[nH]c3ccccc32)CC1` (stereo unspecified), inactive: 3.67%.
For the molecule `O=C(NCC1(N2CCOCC2)CCCCC1)c1cc(F)c(F)cc1Cl`, the inhibition is inactive: 5.95%.
In the case of `CCCCn1nnnc1C(c1ccnc2ccccc12)N1CCC(n2c(=O)[nH]c3ccccc32)CC1` (stereo unspecified) it was inactive: 0.08%; in that of `O=C(NCC1(N2CCCCC2)CCCCC1)c1ccc(Cl)nc1`, inactive: -0.38%.
Take `O=c1[nH]c2ccccc2n1C1CCN(C(c2ccccc2OC(F)(F)F)c2nnnn2C2CCCCC2)CC1` (stereo unspecified): the inhibition was inactive: 0.16%.
On to `Cc1cc(C)cc(N(C(=O)c2ccccc2)C2CCN(C(=O)OC(C)(C)C)CC2)c1`, for which the inhibition was inactive: 1.59%.
With `O=C(NCC1(N2CCOCC2)CCCCC1)c1cc2ccccc2o1`, the inhibition is inactive: 3.2%.
The result for `O=C(NCC1(N2CCCCC2)CCCCC1)c1ccc(Cl)s1` reads inactive: 4.69%; that for `N#CC1(Nc2ccccc2)CCN(Cc2ccccc2)CC1`, inactive: 2.23%; that for `O=c1[nH]c2ccccc2n1C1CCN(C(c2cc3ccccc3o2)c2nnnn2C2CCCCC2)CC1` (stereo unspecified), inactive: -0.62%.
The result for `O=C(OC1CN2CCC1CC2)C1c2ccccc2Oc2ccccc21` (stereo unspecified) reads inactive: 1.95%; that for `COc1ccc(Cl)cc1C(=O)NCC1(N2CCOCC2)CCCCC1`, inactive: -1.08%; that for `CCOC(=O)N1CCC(Nc2ccc(OC)cc2)CC1`, inactive: 2.47%.
In the case of `CCCCn1nnnc1C(c1ccc(OC)cc1)N1CCC(n2c(=O)[nH]c3ccccc32)CC1` (stereo unspecified), the inhibition is inactive: 0.4%.
In the case of `COc1ccc(C(=O)NCC2(N3CCCCC3)CCCCC2)cc1` it was inactive: 0%.
As to `COc1ccc(C(=O)NCC2(N3CCCCC3)CCCCC2)c(OC)c1OC`, the inhibition was inactive: 2.65%.
In the case of `CC(C)(C)OC(=O)N1CCC(N(C(=O)c2ccccc2)c2ccc(F)cc2)CC1` it was inactive: 2.07%.
As for `CCC(c1nnnn1C1CCCC1)N1CCC(n2c(=O)[nH]c3ccccc32)CC1` (stereo unspecified), the inhibition was inactive: 3.67%.
For the molecule `O=C(NCC1(N2CCCCC2)CCCCC1)c1ccc(=O)[nH]c1`, the inhibition is inactive: -0.08%.
In the case of `CCCCn1nnnc1C(CC)N1CCC(n2c(=O)[nH]c3ccccc32)CC1` (stereo unspecified) it was inactive: 0.24%.
The result for `O=C(NCC1(N2CCCCC2)CCCCC1)c1cccs1` reads inactive: 3.67%; that for `CCCCn1nnnc1C(c1cccs1)N1CCC(n2c(=O)[nH]c3ccccc32)CC1` (stereo unspecified), inactive: 3.67%; that for `CSc1ccccc1C(=O)NCC1(N2CCCCC2)CCCCC1`, inactive: -0.91%.
On to `Cc1cccc(NC2(C#N)CCN(Cc3ccccc3)CC2)c1`, for which the inhibition was inactive: 0.93%.
In the case of `O=c1[nH]c2ccccc2n1C1CCN(C(c2ccccc2)c2nnnn2C2CCCCC2)CC1` (stereo unspecified) it was inactive: -1.03%; in that of `CCOC(=O)N1CCC(Nc2cccc(C)c2)CC1`, inactive: -1.48%; in that of `COc1cc(C(=O)NCC2(N(C)C)CCCCC2)ccc1OC(F)F`, inactive: -1.27%.
In the case of `O=c1[nH]c2ccccc2n1C1CCN(C(c2cccc3ccccc23)c2nnnn2C2CCCC2)CC1` (stereo unspecified) it was inactive: 3.58%; in that of `CC(C)(C)n1nnnc1C(c1ccccc1)N1CCC(n2c(=O)[nH]c3ccccc32)CC1` (stereo unspecified), inactive: 0.7%.
In the case of `O=C1CCN(Cc2ccccc2)CC1` it was inactive: 5.81%; in that of `CCOc1ccc(C)cc1CN(CCCl)CCCl`, inactive: 2.09%.
Consider `CCCCOc1ccc(C(=O)NCC2(N3CCOCC3)CCCCC2)cc1`, for which the inhibition was inactive: 2.52%.
In the case of `CCCCn1nnnc1C(c1cc2ccccc2o1)N1CCC(n2c(=O)[nH]c3ccccc32)CC1` (stereo unspecified) it was inactive: 0.39%; in that of `O=P1(N(CCCl)CCCl)SCCCS1`, inactive: 1.79%.
With `O=C(NCC1(N2CCCCC2)CCCCC1)c1ccc(F)cc1`, the inhibition was inactive: 3.62%.
Turning to `CCOC(=O)N1CCC(Nc2ccc(F)cc2)CC1`, the inhibition is inactive: 0.38%.
In the case of `COc1ccc(NC2CCN(CCc3ccccc3)CC2)c(OC)c1` it was inactive: 0.31%.
